Laboratory results as given in patent publication US11000571B2 (priority 2016, dated 2021).

Assays:
[1] = system: intracerebral hemorrhage (“ICH”) mouse model; test: Intracerebral hemorrhage (ICH) mouse model, 28-point neurological scale; type: in vivo, C57BL/6J mice
[2] = system: MMP-9 (metalloproteinase-9); test: Serum MMP-9 stroke biomarker by ELISA after ICH; type: in vivo, C57BL/6J mice; conditions: 32 mg/kg dose; 24 hours post-ICH; relative to saline

## (Aib)HGGGWGQ(Aib)HGGGWGQ
[1]; 16 mg/kg IP at 1, 4, 24, 48 h after ICH, scored 6, 24, 48, 72 h post-ICH, relative to saline
  28-point scale score: effective at each time point tested
[1]; 16 mg/kg, 6 hrs
  sensory response component of 28-point scale: improved at statistically significant levels
[1]; 32 mg/kg IP at 1, 4, 24, 48 h after ICH, scored 6, 24, 48 h post-ICH, relative to saline
  28-point scale score: effective at each time point tested
[1]; 32 mg/kg IP, 72 hours post-ICH, relative to untreated animals
  28-point scale score: did not result in statistically significant difference
[1]; low dose (16 mg/kg), 24 hours
  sensory response component of 28-point scale: improved at statistically significant levels
[1]; overall conclusion, 16 and 32 mg/kg
  behavioral and neurological deficits following induction of ICH (overall): efficacious at diminishing the behavioral and neurological deficits
[2]
  MMP9 serum levels: diminished
